## HIV-1 5' UTR: DMS reactivities by position

The 5' region of HIV-1 NL4-3 RNA (positions 1-437):
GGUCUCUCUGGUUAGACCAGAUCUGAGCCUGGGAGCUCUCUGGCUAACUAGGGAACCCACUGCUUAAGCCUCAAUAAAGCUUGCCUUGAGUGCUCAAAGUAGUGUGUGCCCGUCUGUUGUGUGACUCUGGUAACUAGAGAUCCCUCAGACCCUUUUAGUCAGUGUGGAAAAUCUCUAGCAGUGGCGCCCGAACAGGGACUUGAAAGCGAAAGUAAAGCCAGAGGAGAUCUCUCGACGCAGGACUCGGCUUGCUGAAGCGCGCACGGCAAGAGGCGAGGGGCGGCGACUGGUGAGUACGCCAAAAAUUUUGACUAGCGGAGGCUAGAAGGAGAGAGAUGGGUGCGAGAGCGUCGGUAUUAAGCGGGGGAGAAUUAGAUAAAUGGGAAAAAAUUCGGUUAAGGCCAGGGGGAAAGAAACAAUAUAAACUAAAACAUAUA

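Mutant RNA libraries with 1G, 2G or 3G starts, with or without cap, were folded at 37 °C for 30 min. High salt was 300 mM KCl and 5 mM MgCl2, low salt 40 mM KCl and 0.1 mM MgCl2; monomer and dimer were parted on a native gel. Gel slices were treated with 170 mM dimethyl sulfate for 15 min at 37 °C and read by mutational profiling against an ethanol control.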

Values are winsor-normalised DMS reactivities of A and C; higher means more reactive, usually unpaired.
One numbering serves 1G, 2G and 3G.
A position is written with its base.

With A19 (domain TAR) the assay gave 3G uncapped high-salt monomer 0.03; 2G capped low-salt monomer 0.03. A21 (domain TAR) read 3G uncapped high-salt monomer 0.59; 2G capped low-salt monomer 0.52. C23 (domain TAR) read 3G uncapped high-salt monomer 1.45; 2G capped low-salt monomer 1.32. With A26 (domain TAR) the assay gave 3G uncapped high-salt monomer 0.09; 2G capped low-salt monomer 0.09. C28 (domain TAR) gave 3G uncapped high-salt monomer 0.03; 2G capped low-salt monomer 0.03.

C29 (domain TAR) gave 3G uncapped high-salt monomer 0.10; 2G capped low-salt monomer 0.10. A34 (domain TAR) gave 3G uncapped high-salt monomer 1.25; 2G capped low-salt monomer 1.11. C36 (domain TAR) gave 3G uncapped high-salt monomer 0.03; 2G capped low-salt monomer 0.03. With C38 (domain TAR) the assay gave 3G uncapped high-salt monomer 0.03; 2G capped low-salt monomer 0.03. C40 (domain TAR) read 3G uncapped high-salt monomer 0.03; 2G capped low-salt monomer 0.03.

C44 (domain TAR) gave 3G uncapped high-salt monomer 0.03; 2G capped low-salt monomer 0.03. A46 (domain TAR) gave 3G uncapped high-salt monomer 0.03; 2G capped low-salt monomer 0.04. A47 (domain TAR) gave 3G uncapped high-salt monomer 0.12; 2G capped low-salt monomer 0.14. C48 (domain TAR) read 3G uncapped high-salt monomer 0.03; 2G capped low-salt monomer 0.03. For A50 (domain TAR) the result was 3G uncapped high-salt monomer 0.12; 2G capped low-salt monomer 0.13.

For A54 (domain TAR) the result was 3G uncapped high-salt monomer 0.15; 2G capped low-salt monomer 0.14. A55 (domain TAR) read 3G uncapped high-salt monomer 0.19; 2G capped low-salt monomer 0.26. C56 (domain TAR) read 3G uncapped high-salt monomer 0.03; 2G capped low-salt monomer 0.04. With C57 (domain TAR) the assay gave 3G uncapped high-salt monomer 0.03; 2G capped low-salt monomer 0.03. C58 (domain PolyA) gave 3G uncapped high-salt monomer 0.03; 2G capped low-salt monomer 0.98.

A59 (domain PolyA) gave 3G uncapped high-salt monomer 0.84; 2G capped low-salt monomer 0.50. For C60 (domain PolyA) the result was 3G uncapped high-salt monomer 0.75; 2G capped low-salt monomer 0.38. With C63 (domain PolyA) the assay gave 3G uncapped high-salt monomer 0.61; 2G capped low-salt monomer 0.25. A66 (domain PolyA) gave 3G uncapped high-salt monomer 0.83; 2G capped low-salt monomer 1.01. With A67 (domain PolyA) the assay gave 3G uncapped high-salt monomer 0.96; 2G capped low-salt monomer 0.73.

With C69 (domain PolyA) the assay gave 3G uncapped high-salt monomer 0.07; 2G capped low-salt monomer 0.03. C70 (domain PolyA) read 3G uncapped high-salt monomer 0.03; 2G capped low-salt monomer 0.03. With C72 (domain PolyA) the assay gave 3G uncapped high-salt monomer 0.10; 2G capped low-salt monomer 0.08. A73 (domain PolyA) read 3G uncapped high-salt monomer 0.04; 2G capped low-salt monomer 0.03. With A74 (domain PolyA) the assay gave 3G uncapped high-salt monomer 0.97; 2G capped low-salt monomer 0.76.

With A76 (domain PolyA) the assay gave 3G uncapped high-salt monomer 0.28; 2G capped low-salt monomer 0.25. A77 (domain PolyA) gave 3G uncapped high-salt monomer 0.92; 2G capped low-salt monomer 0.78. With A78 (domain PolyA) the assay gave 3G uncapped high-salt monomer 0.90; 2G capped low-salt monomer 0.73. For C80 (domain PolyA) the result was 3G uncapped high-salt monomer 0.29; 2G capped low-salt monomer 0.39. For C84 (domain PolyA) the result was 3G uncapped high-salt monomer 0.19; 2G capped low-salt monomer 0.49.

With C85 (domain PolyA) the assay gave 3G uncapped high-salt monomer 0.13; 2G capped low-salt monomer 0.31. For A89 (domain PolyA) the result was 3G uncapped high-salt monomer 0.78; 2G capped low-salt monomer 0.49.

The first 3 entries again:

position	domain	3G uncapped high-salt monomer	2G capped low-salt monomer
A19	TAR	0.03	0.03
A21	TAR	0.59	0.52
C23	TAR	1.45	1.32

The measurements come from Ye et al. 2022 (doi:10.1038/s41594-022-00746-2).